The exact form of at least one protein or probe is not confirmed. For some of these results: The comparison behind a weaker result is the experiment's own reference, which may not be listed here. Where a protein sequence is shown, tags need not be part of it. At least one verdict was read from the data and is not stated in words by the source.
What was measured:
[1] = target: T1, DprA (DprANm) (Neisseria meningitidis MC58) (UniProt Q9K1K1); assay: EMSA; settings: EMSA: 40 mM Tris-HCl pH 8, 2.5 mM EDTA, 2 mM MgCl2, 6% glycerol, 1 mM DTT, 30 min on ice, 5% native PAGE at 4 °C, recombinant protein, protein details: N-terminal 6xHis (pET28b, cleavable)
T1 sequence (looked up, limits assumed): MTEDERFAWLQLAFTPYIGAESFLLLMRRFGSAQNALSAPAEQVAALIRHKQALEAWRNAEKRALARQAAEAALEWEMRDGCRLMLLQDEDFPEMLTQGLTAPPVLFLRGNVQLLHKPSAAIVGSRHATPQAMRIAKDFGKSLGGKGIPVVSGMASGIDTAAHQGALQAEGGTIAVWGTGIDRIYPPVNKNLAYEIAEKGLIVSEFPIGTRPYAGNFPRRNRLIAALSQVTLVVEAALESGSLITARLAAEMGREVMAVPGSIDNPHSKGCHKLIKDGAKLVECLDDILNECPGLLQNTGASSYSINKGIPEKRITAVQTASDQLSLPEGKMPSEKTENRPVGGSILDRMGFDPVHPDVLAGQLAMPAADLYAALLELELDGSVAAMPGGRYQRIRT

[2] = target: T1, DprA (DprANm) (Neisseria meningitidis MC58); assay: competition with a labelled probe; settings: 30 nM DprA, complex less stable above ~15 nM DNA, EMSA: 40 mM Tris-HCl pH 8, 2.5 mM EDTA, 2 mM MgCl2, 6% glycerol, 1 mM DTT, 30 min on ice, 5% native PAGE at 4 °C, recombinant protein, protein details: N-terminal 6xHis (pET28b, cleavable), single-stranded DNA

GCTGATCAACCCTACATGTGTAGGTAACCCTAACCCTAACCCTAAGGACAACCCTAGTGAAGCTTGTAACCCTAGGAGCT (double strand) [G80C80 (C80G80)]
binding result ([1]; 0.5-80 nM DprA, weaker than ssDNA C80, label: 32P end label): binds more weakly

TTTTTTTTTTTTTTTTTTTTTTTTTTTTTTTTTTTTTTTTTTTTTTTTTTTTTTTTTTTTTTTTTTTTTTTTTTTTTTTTTTTTTTTTTTTTTTTTTTTT [dT100]
binding result ([1]; 30 nM DprA, affinity increases with length, label: 32P, single-stranded DNA): binds

GCCGTCTGAAAGCTCTAGGCCGTCTGAAACGTCAGGCCGTCTGAAAGCTCTAGGCCGTCTGAAACGTCAGGCCGTCTGAA [GTB25 (unlabelled competitor)]
binding result ([2]; hot GTB25 (self-competition)): binds

GCTGATCAACCCTACATGTGTAGGTAACCCTAACCCTAACCCTAAGGACAACCCTAGTGAAGCTTGTAACCCTAGGAGCT [C80 (unlabelled competitor)]
binding result ([2]; hot C80 (self-competition)): binds
